Anti-infective test results gathered from many reports (values: NIAID ChemDB through PubChem).

All rows: whole-cell or culture tests; organism: Mycobacterium tuberculosis

Conditions beyond the fields shown may differ between rows. Inhibition is in % at the dose shown (toxicity tests: loss of growth or viability). MIC bound: limit read from a one-dose screen. a–b is a range or a potency band. ECn: concentration that inhibits the pathogen or its effect by n%. An empty or dashed field is not shown. MIC50, MIC90 and the like: level of inhibition, or share of isolates inhibited.

structure | cells | read-out | mutations | strain | method | dose | result
CCOC(=O)Nc1cc2ncc(CN(C)c3ccc(C(=O)OC)cc3)nc2c(N)n1 |  | inhibition |  | H37Rv |  | 12.5 µg/mL | 0%
CCN(CC)CCNc1cc2ccccc2c2sc3ccccc3c(=O)c12 |  | MIC |  | H37Rv | BACTEC |  | 3.13 µg/mL
COc1ccc(Cc2cnc(N)nc2N)cc1OCCNc1ccc(S(=O)(=O)c2ccc(N)cc2)cc1 |  | MIC |  | H37Rv |  |  | 11.5 µM
Nc1ccc(S(=O)(=O)c2ccc(N)cc2)cc1 |  | inhibition |  |  |  | 16 µg/mL | 0%
ONC(=S)N/N=C/c1ccccc1O |  | MIC |  | H37Rv |  |  | 25.58 µM
NNC(=O)c1ccncc1 |  | MIC |  |  |  |  | 1 µg/mL
Cc1c(C(=O)O)c(O)c(-c2ccccc2)c(=O)n1-c1ccccc1 |  | MIC |  | H37Ra |  |  | >256 µg/mL
NNC(=O)c1cc(C2C3CC4CC(C3)CC2C4)c2ccccc2n1 |  | inhibition |  | H37Ra | BACTEC | 6.25 µg/mL | 99%
Nc1ccc(S(=O)(=O)c2ccc(O)cc2)c2ncccc12 |  | MIC |  | H37Rv |  |  | 100 µg/mL
CCCCCCCC(O)CC(=O)CCc1ccc(O)c(OC)c1 |  | MIC |  | H37Rv |  |  | 50 µg/mL
C/C(CC/C(C)=N/N=C(\N)c1ccccn1)=N\N=C(/N)c1ccccn1 |  | inhibition |  | H37Rv | BACTEC | 12.5 µg/mL | -11%
O=[N+]([O-])c1ccc(Oc2ccc3ccccc3c2)c2ncccc12 |  | MIC |  | H37Rv |  |  | 1 µg/mL
CCOC(=O)Nc1cc(NCC(C)CN(C)c2ccccc2)cc(NC(=O)OCC)n1 |  | inhibition |  | H37Rv |  | 12.5 µg/mL | 7%
O=C(Nc1ccccc1)N1CCc2c(c(-c3ccccc3)nn2Cc2cn(-c3ccc(F)c(Cl)c3)nn2)C1 |  | MIC |  | H37Rv | visual reading |  | 105 µM
CC(=O)NC1[C@H](OCCCSCC(COC(C)=O)OC(C)=O)OC(COC(C)=O)[C@H](OC(C)=O)[C@@H]1O[C@@H]1OC(C)[C@H](OC(C)=O)[C@H](OC(C)=O)C1OC(C)=O |  | MIC |  | H37Rv | agar |  | 3.13 µg/mL
COc1ccc(Cc2cnc(N)nc2N)cc1OCc1ccc(S(=O)(=O)c2ccc(N)cc2)cc1 |  | MIC |  | H37Rv |  |  | 61.1 µM
COc1ccc(OC)c(/C=N/NC(=O)c2ccccc2N(C)C)c1 |  | inhibition |  | H37Rv | BACTEC | 12.5 µg/mL | 6%
Cc1cc(O)c(-c2ccccc2Cl)c(=O)[nH]1 |  | MIC |  | H37Ra |  |  | 128 µg/mL
O=[N+]([O-])c1ccc(S(=O)(=O)c2cc(Cl)ccc2Cl)c2ncccc12 |  | MIC |  | H37Rv |  |  | >200 µg/mL
CC1OC(O)CC(N(C)C)C1O.CC1OC(O)CCC1O.CCC1CC(O)c2c(O)c3c(c(O)c2C1O)C(=O)c1cccc(O)c1C3=O |  | inhibition |  | H37Rv | BACTEC | 12.5 µg/mL | 54%
COc1cc([C@](O)(CCN(C)C)[C@@H](c2cc(-c3ccc(OC(F)(F)F)cc3)cnc2OC)c2cccc(OC)c2F)cc(OC)n1 |  | MIC90 |  | H37Rv | resazurin |  | 0.6 µM
O=C(Nc1ccccc1)N1CCc2c(c(-c3ccccc3)nn2Cc2cn(-c3ccc(Cl)cc3)nn2)C1 |  | MIC |  | H37Rv | visual reading |  | 196 µM
C=C(C)C1CCC2(CO)C(O)CC3(C)C(CCC4C5(C)CCC(O)C(C)(C)C5CCC43C)C12 |  | MIC bound |  | H37Rv | BACTEC |  | >12.5 µg/mL
CC(C)N=C(N)/N=C(\N)NOCCCOc1cc(Cl)c(Cl)cc1Cl |  | MIC |  | Erdman |  |  | 2.2 µg/mL
CC(=O)O[C@@H]1/C=C/[C@@](C)(O)C(=O)[C@@H](C)C/C=C/[C@H]2[C@@H]3O[C@]3(C)[C@@H](C)[C@H]3[C@H](Cc4ccccc4)NC(=O)[C@@]312 |  | MIC |  | H37Ra |  |  | >200 µg/mL
CCOC(=O)Nc1cc(N[C@@H](C)[C@H](O)c2ccccc2)c(N)c(N)n1 | VERO | MIC |  | H37Rv |  |  | 12.5 µg/mL
COc1ccc(NC(=O)c2cc(C3C4CC5CC(C4)CC3C5)c3ccccc3n2)cc1Cl |  | MIC |  | H37Ra | BACTEC |  | >6.25 µg/mL
CC1OC(=O)c2cccc(O)c21 |  | MIC |  | H37Rv |  |  | 1000 µg/mL
C=CCO[C@@H]1OC2COC(c3ccccc3)O[C@@H]2[C@H](O[C@@H]2OC(C)[C@H](OC(C)=O)[C@H](OC(C)=O)C2OC(C)=O)C1NC(C)=O |  | MIC |  | H37Rv | agar |  | 6.25 µg/mL
CCOC(=O)Nc1cc(N)c([N+](=O)[O-])c(NCC(CN(C)c2ccc(NC)cc2)=NC)n1 |  | inhibition |  | H37Rv |  | 12.5 µg/mL | 0%
Cc1ccc(NC(=O)Oc2cc(C)c(Br)c(C)c2)cc1Cl |  | inhibition |  | H37Rv | BACTEC | 12.5 µg/mL | 2%
COc1cccc2c1C(=O)OC2C |  | MIC |  | H2 |  |  | 1000 µg/mL
NNC(=O)c1cnc2ccccc2c1 |  | inhibition |  | H37Ra | BACTEC | 6.25 µg/mL | 0%
Cc1cc(O)c(-c2ccccc2)c(=O)[nH]1 |  | MIC |  | H37Ra |  |  | 16–32 µg/mL
C[C@H]1COc2c(N3CCN(C)CC3)c(F)cc3c(=O)c(C(=O)O)cn1c23 |  | MIC90 |  | 25 isolates |  |  | 0.39 µg/mL
COc1cc(Cc2cnc(N)nc2N)cc(OC)c1OCCNc1ccc(S(=O)(=O)c2ccc(N)cc2)cc1 |  | MIC |  | H37Rv |  |  | 32.7 µM
COc1cc(C(O)(CCN(C)C)C(c2cc(-c3ccccc3F)cnc2OC)c2cccc(OC)c2F)cc(OC)n1 |  | MIC90 |  | H37Rv | resazurin |  | 10 µM
CCCCCCCCOC1OC(C)C(O[C@@H]2O[C@@H]([C@H](O)CO)[C@H](O)[C@H]2O)C(O)C1O |  | MIC |  | H37Ra |  |  | >128 µg/mL
O=C(Nc1ccccc1)N1CCc2c(c(-c3ccccc3)nn2Cc2cn(-c3ccc(C(F)(F)F)cc3)nn2)C1 |  | MIC |  | H37Rv | visual reading |  | 91.98 µM
Nc1ccc2c(SCC(=O)Nc3ccccc3-c3ccccc3NC(=O)CSc3c4ccccc4nc4cc(N)ccc34)c3ccccc3nc2c1 |  | inhibition |  | H37Rv | resazurin | 6.25 µg/mL | 6%
CC(=O)NC1[C@H](OCCCSC2CCCC2)OC(COC(C)=O)[C@H](OC(C)=O)[C@@H]1O[C@@H]1OC(C)[C@H](OC(C)=O)[C@H](OC(C)=O)C1OC(C)=O |  | MIC |  | H37Rv | agar |  | 6.25 µg/mL
COc1cc(C(O)(CCN(C)C)C(c2cc(-c3cccc(C)c3)cnc2OC)c2cccc(OC)c2F)cc(OC)n1 |  | MIC90 |  | H37Rv | resazurin |  | 7.9 µM
O=[N+]([O-])c1ccc(S(=O)(=O)c2nc3ccccc3s2)c2ncccc12 |  | MIC |  | H37Rv |  |  | 100 µg/mL
O=C(Nc1ccccc1)N1CCc2c(c(-c3ccccc3)nn2Cc2cn(-c3cccc(Cl)c3)nn2)C1 |  | MIC |  | H37Rv | visual reading |  | 98.04 µM
CCn1cc(C(=O)O)c(=O)c2cc(F)c(-n3cccc3)cc21 |  | MIC90 |  | 64 isolates |  |  | 16 µg/mL
CCCCCCn1c(C)cc(O)c(-c2ccccc2)c1=O |  | MIC |  | H37Ra |  |  | 8 µg/mL
Nc1ccc(Sc2nc3ccccc3s2)c2ncccc12 |  | MIC |  | H37Rv |  |  | 40 µg/mL
O=c1cc(-c2ccc(O)cc2)oc2cc(O[C@@H]3O[C@H](CO)[C@@H](O)[C@H](O)[C@H]3O)cc(O)c12 |  | inhibition |  | H37Rv | BACTEC | 12.5 µg/mL | -10%
CC/C=C/C(CC)CCC[C@@]1(CC)C[C@H](CC)[C@H](CC(=O)O)OO1 |  | inhibition |  |  |  | 64 µg/mL | 83%
CCC1=C(C)C(=O)OC1n1ccc(=O)[nH]c1=O |  | inhibition |  | H37Rv | BACTEC | 12.5 µg/mL | 4%
Cc1cc2oc(=O)cc(-c3ccccc3)c2c(C)c1-c1ccc(CO)cc1 |  | EC99 |  | H37Rv | turbidity |  | 2.6 µM
CC(=O)c1sc2[n+](c1C)C(=O)/C(=C/c1ccccc1Cl)S2 |  | inhibition |  | H37Rv | BACTEC | 12.5 µg/mL | 5%
CO[C@H]1/C=C/O[C@@]2(C)Oc3c(C)c(O)c4c(O)c(c(/C=N/N5CCN(C)CC5)c(O)c4c3C2=O)NC(=O)/C(C)=C\C=C\[C@H](C)[C@H](O)[C@@H](C)[C@@H](O)[C@@H](C)[C@H](OC(C)=O)[C@@H]1C |  | MIC99 | 531Trp |  |  |  | ≥640 µg/mL
NNC(=O)Cc1ccnc2ccccc12 |  | inhibition |  | H37Ra | BACTEC | 6.25 µg/mL | 9%
Cc1cc(C)c2c(-c3ccccc3)cc(=O)oc2c1 |  | EC90 |  | H37Rv | turbidity |  | >250 µM
CC1OC(=O)c2ccc(O)cc21 |  | MIC |  | H37Rv |  |  | 1000 µg/mL
CC(C)=CCC/C(C)=C/COc1ccc(/C=C2\C(=O)N(O)[C@@H](C)C(=O)N2O)cc1 |  | MIC |  | RMP-R |  |  | >12.5 µg/mL
Cc1cc2oc(=O)cc(-c3ccccc3)c2c(C)c1-c1ccc(CN2CCOCC2)cc1 |  | EC99 |  | H37Rv | turbidity |  | 0.42 µM
O=C(O)c1csc(C(=O)O)c1 |  | inhibition |  | H37Rv | BACTEC | 12.5 µg/mL | 21%
COc1cc([C@@](O)(CCN(C)C)[C@@H](c2cc(-c3ccc(C#N)cc3)cnc2OC)c2cccc(OC)c2F)cc(OC)n1 |  | MIC90 |  | H37Rv | resazurin |  | 11.16 µM
CCOC(=O)Nc1cc2c(c(N)n1)N=C(c1ccccc1)[C@@H](C)N2 |  | EC50 |  | H37Rv |  |  | <12.5 µg/mL
CC/C=C/C(CC)CCC[C@@]1(CC)C[C@H](CC)[C@H](CC(=O)OC)OO1 |  | inhibition |  |  |  | 16 µg/mL | 34%
C/C=C/c1noc2c1C(=O)OC(C)C2 |  | inhibition |  | H37Rv | BACTEC | 12.5 µg/mL | 6%
CO[C@H]1/C=C/O[C@@]2(C)Oc3c(C)c(O)c4c(=O)c(c5oc6cc(N7CCN(CC(C)C)CC7)cc(=O)c6nc5c4c3=C2O)NC(=O)/C(C)=C\C=C\[C@H](C)[C@H](O)[C@@H](C)[C@@H](O)[C@@H](C)[C@H](OC(C)=O)[C@@H]1C |  | MIC |  | H37Rv |  |  | 0.035 µg/mL
NC(=O)CCN1CCCN(CCC(N)=O)CCN(CCC(N)=O)CCCN(CCC(N)=O)CC1 |  | inhibition |  | H37Rv | resazurin | 6.25 µg/mL | -1%
C[C@H]1COc2c(N3CCN(C)CC3)c(F)cc3c(=O)c(C(=O)O)cn1c23 |  | MIC50 |  | 18 strains |  |  | 0.5 µg/mL
COc1cc(Cc2cnc(N)nc2N)cc(OC)c1OCCCNc1ccc(S(=O)(=O)c2ccc([N+](=O)[O-])cc2)cc1 |  | MIC |  | H37Rv |  |  | 3.6 µM
CSCCC(NC(=O)C(Cc1c[nH]c2ccccc12)NC(=O)OC(C)(C)C)C(=O)NN |  | MIC bound |  | H37Rv | BACTEC |  | >12.5 µg/mL
CC1OC(=O)c2cc(Br)ccc21 |  | MIC |  | H2 |  |  | 300 µg/mL
Cc1cc(O)c(-c2cccc(Cl)c2)c(=O)[nH]1 |  | MIC |  | H37Ra |  |  | 16 µg/mL
O=[N+]([O-])c1ccc(Sc2ccc(Cl)c(Cl)c2)c2ncccc12 |  | MIC |  | H37Rv |  |  | 20 µg/mL
Cc1cc(O)c(-c2ccccc2)c(=O)n1C |  | MIC |  | H37Ra |  |  | 16 µg/mL
Nc1ccc2c(n1)NCC/C2=N\Nc1ccccc1 |  | MIC |  | H37Rv | BACTEC |  | ≥12.5 µg/mL
Cc1c(-c2ccc(CCO)cc2)ccc2oc(=O)cc(-c3ccccc3)c12 |  | EC90 |  | H37Rv | turbidity |  | 70 µM
CCC/C=c1\[nH]c(=O)/c(=C/c2ccc(OC)cc2)[nH]c1=O |  | inhibition |  | H37Rv | BACTEC | 12.5 µg/mL | -5%
COc1cc([C@@](O)(CCN(C)C)[C@H](c2cc(-c3ccc(C#N)cc3)cnc2OC)c2cccc(OC)c2F)cc(OC)n1 |  | MIC90 |  | H37Rv | resazurin |  | >10 µM
CCOC(=O)C(c1c(O)c2ccccc2oc1=O)c1c(O)c2ccccc2oc1=O |  | inhibition |  | H37Rv | BACTEC | 12.5 µg/mL | 26%
CC(C)[C@H]1CC[C@H]2[C@@H]3C=C[C@]4(C)CC[C@@]3(CC[C@]12C(=O)O)CO4 |  | MIC |  | H37Rv | visual reading / absorbance |  | 314 µM
O=C1C(N=Nc2ccc([N+](=O)[O-])cc2)Sc2nc3ccccc3n21 |  | MIC |  | H37Rv | BACTEC |  | ≥12.5 µg/mL
NNC(=O)c1cc(C2CCCC2)c2c(C3CCCC3)cccc2n1 |  | MIC |  | H37Ra | BACTEC |  | 6.25 µg/mL
CCO/C(CCn1[nH]c(=O)c(Cl)c(Cl)c1=O)=N\NC(=O)C(=O)NN |  | MIC |  | H37Rv | BACTEC |  | ≥12.5 µg/mL
NNC(=O)Cc1cc(C2CCCCC2)nc2ccccc12 |  | inhibition |  | H37Ra | BACTEC | 6.25 µg/mL | 12%